# Record: PubChem BioAssay AID504761 (Drosophila RNAi Screening Center, 2011)
# Assay: 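Genome-wide fly cell screen for genes dengue virus requires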 (primary screen)
# System: D.Mel-2 cells from Drosophila
# Reagents: long dsRNA against Drosophila genes
# Conditions: infection with dengue virus type 2; dose and infection time not stated
# Detection: 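Per well on two replicate plates, imaging gave the percent of cells positive for viral envelope protein, ranked by infection, and a nuclear count of cells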
# Direction: infection score: higher = more virus-infected cells; cell count: higher = more cells in the well
# Call rule: 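Very low infection ranking in both replicate wells (chance probability at most 0.065), then a retest showing infection dropped 1.5-fold or more at p below 0.05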
# Meaning of the calls: active = confirmed: knock-down lowers infection; inactive = not picked or not confirmed
# In all, the deposit lists about 22,000 reagents; below is a random part of those that have a named target and a result. In the full data, 116 (0.52%) were called active. 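Calls depend on retest data that are not deposited; infection was ranked per plate without normalising between plates; the unit of the infection score is not given.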 Raw values vary from plate to plate and are shown uncorrected. A number with no mark means an inactive call. Reagent sequences are not shown. The record does not give: the amount of reagent, the time to read-out.
target,amplicon,"infection score, replicate 1","infection score, replicate 2","cell count, replicate 1","cell count, replicate 2"
CG31068,DRSC13820,2.22,5.5,6249,5960
fend,DRSC17601,11.3,3.6,6345,6175
fend,DRSC17867,6.34,3.05,6123,6305
CG31021,DRSC22319,3.65,8.82,5779,6879
CG3437,DRSC10366,0.91,3.7,6045,6244
CG3437,DRSC24768,1.87,2.25,7015,6456
CG13708,DRSC08317,3.71,3.22,5963,6482
CG9630,DRSC16527,10.5,20.9,3277,5018
mRpS16,DRSC07152,8.6,9.78,6136,6433
yellow-f2,DRSC16372,,21,432,3330
yellow-f2,DRSC26523,7.7,7.98,5808,6339
CG18428,DRSC15326,2.8,3.07,6248,6617
CG18428,DRSC29185,15.1,7.73,3962,6401
CG6766,DRSC02991,15.6,15.6,5710,5556
Atx2,DRSC23010,3.26,7.32,4330,4589
CG13907,DRSC08377,3.59,3.03,6401,6435
CG13907,DRSC25983,0.72,1.06,6909,6595
CG31226,DRSC21724,3.35,24.8,6389,3804
CG9304,DRSC04538,7.03,4.29,6816,6870
CG9304,DRSC26210,16.3,17.8,5480,5783
CG11267,DRSC09833,0.55,2.05,6160,6200
nonA-l,DRSC17017,1.11,2.7,6122,6452
nonA-l,DRSC25387,0.69,6.8,6256,6601

Targets above whose target name begins with F or f (2):
target,amplicon,"infection score, replicate 1","infection score, replicate 2","cell count, replicate 1","cell count, replicate 2"
fend,DRSC17601,11.3,3.6,6345,6175
fend,DRSC17867,6.34,3.05,6123,6305
